Test system: activated sludge (microbial inoculum)
Test: Aerobic biodegradability in water containing mineral salts and activated sludge (CO2 evolution, DOC)
Details: for mean % ThCO2: corrected for background CO2 from the controls
Protocol: A maleinized ester derivative in the form of hydrogenated 1-pentyl triester of maleinated-9-dodecene methyl ester (hereinafter the “test substance”) is evaluated for aerobic biodegradability in water containing mineral salts and activated sludge. The activated sludge is taken from a wastewater treatment plant and is used as a source of microbial inoculum. The objectives of the study are: 1) to evaluate the biodegradability (mineralization to CO2 production) potential of the test substance in an aerobic, aqueous medium; and 2) to determine the mineralization potential of a reference chemical in order to assess the viability of the test inoculum.
Approximately one liter of activated sludge is used as the microbial inoculum. The sludge is collected from the Columbia Wastewater Plant in Columbia, Miss. This plant treats predominately domestic sewage.
An aqueous mineral salts medium provides essential mineral nutrients and trace elements necessary to sustain the inoculum throughout the test period. The mineral salts medium is prepared by addition of reagent grade salts to reagent water. The mineral salts include salts of K, Na, NHa, Ca, Mg and Fe. The pH of the mineral salts medium is 7.27.
Each test system consists of a 5-L Pyrex carboy (reaction flask or vessel) containing a 3.0 L test solution volume comprised of mineral salts medium, prepared microbial inoculum, reagent water, and the appropriate test and/or reference substance additions. Outside air is passed through a pre-trap containing 500 mL of approximately 5 N KOH. The air is then passed through approximately 500 mL of reagent water to humidify the air, as well as to prevent contamination of the flasks from the KOH pre-trap. The CO2-free and humidified air is then passed through the reaction flasks.
The CO2-free air is introduced into each flask by positive pressure, and the flow rates (50-100 mL/minute) are measured and adjusted using flow meters. The outlet from each flask is connected to three CO2 absorber gas-washing traps in series, each filled with 100 mL of 0.2 N KOH solution. These traps capture the CO2 evolved from the reaction flasks. A magnetic stir bar is placed in each flask. The flasks are placed on insulated magnetic stir plates and stirred throughout the duration of the study. The test systems are kept in the dark (except for sampling and maintenance) in a temperature-controlled environmental chamber set at 22° C. Temperature of the chamber is continuously measured using a Rees Scientific temperature monitoring system.
The activated sludge is homogenized in a blender at a medium speed for two minutes. The homogenized sludge is allowed to settle for 30 to 60 minutes then filtered through glass wool. A volume of 30 mL of the filtrate is used as the inoculum for each reaction flask.
One day prior to dosing, six test systems are assembled. Each 5-L carboy receives 2,400 mL of mineral salts medium and 30 mL of the prepared activated sludge. Stirring and aeration with CO2-free air at approximately 90 mL/minute is started for each flask. The flasks are allowed to aerate overnight to purge the systems of CO2 before initiation of the test (dosing on Day 0).
Duplicate test substance systems are prepared by adding 570 mL of reagent water and approximately 42.2 mg (dosed gravimetrically) of the test substance to two of the 5-L carboys. The nominal concentration of carbon from the test substance in the final volume of 3,000 mL of solution is 10 mg C/L.
The reference substance system is prepared by adding 467 mL of reagent water and 103 mL of the 1.00-mg/mL reference substance stock solution to a 5-L carboy. The nominal concentration of carbon from the reference substance in the final volume of 3,000 mL of solution is 20 mg C/L.
The nominal concentration of carbon from the toxicity system in the final volume of 3,000 mL of solution is 30 mg C/L.
After all additions, each of the reaction flasks are connected to a series of three traps containing 100 mL of 0.2 N KOH. […]

Question: For “hydrogenated 1-pentyl triester of maleinated-9-dodecene methyl ester [test substance]”, which biodegradability classification (>60% ThCO2 within a 10-day window) is on record?
Answer: readily biodegradable

Question: And the “mean % ThCO2” value (Day 9, mean of replicates)?
Answer: 15.8%

Question: And the “mean % ThCO2” value (Day 19, mean of replicates)?
Answer: 71.6%

Question: What about the “% ThCO2” value (Day 19, replicate A) of the same substance?
Answer: 63.8%

Question: And the “% ThCO2” value (Day 19, replicate B)?
Answer: 79.4%

Question: And the “corrected DOC concentration at termination” value (Day 28)?
Answer: 3.35 mg C/L

Reference: patent US9464255B2, “Maleinized ester derivatives” (Elevance Renewable Sciences, Inc., priority 2013, dated 2016)
